T1: Bla1 class A β-lactamase from Bacillus anthracis (Bacillus anthracis)
T1 chain: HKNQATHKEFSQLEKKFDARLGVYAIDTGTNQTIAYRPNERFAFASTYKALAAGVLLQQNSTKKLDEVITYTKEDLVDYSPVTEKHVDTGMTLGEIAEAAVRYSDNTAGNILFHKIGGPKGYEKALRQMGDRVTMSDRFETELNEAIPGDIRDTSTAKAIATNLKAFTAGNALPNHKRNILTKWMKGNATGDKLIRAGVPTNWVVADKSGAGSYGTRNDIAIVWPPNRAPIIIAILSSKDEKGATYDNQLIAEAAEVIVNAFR


What was measured:
[1] = target: Bla1 class A β-lactamase from Bacillus anthracis (Bacillus anthracis); experiment: β-lactamase inhibition assay (Pen V)
[2] = target: T1, Bla1 class A β-lactamase from Bacillus …; experiment: ratio of Ki values, β-lactamase inhibition assay
[3] = target: T1, Bla1 class A β-lactamase from Bacillus …; experiment: β-lactamase inhibition assay (Pen V), Ki from IC50 by Cheng-Prusoff

| Molecule | Ki [1] [µM] | fold lower Ki than the Ki for inhibition of TEM-1 β-lactamase [2] [fold] | Ki [3] [µM] | fold increase in Ki relative to RRGHYY-NH2 [2] [fold] |
| --- | --- | --- | --- | --- |
| RR-NH2 (peptide) | > 2000 |  |  |  |
| RRGHYY (modifications not checked) [RRGHYY-NH2] |  | 3 | 42 |  |
| AAGHYY (modifications not checked) [AAGHYY-NH2] |  |  | 72 | 2 |
| HSAYSDTRRGDYG (modifications not checked) […-NH2] |  | 4 | 70 |  |

— patent publication US20050186197A1, “Peptide inhibitors of beta lactamases” (published 2005)
